Results of unrelated studies side by side (data: NIAID ChemDB).

All rows: growth or infection tests; agent: HIV-1

ECn: concentration that inhibits the pathogen or its effect by n%. Rows are shuffled and stem from different studies.

COC(=O)[C@H](C)NP(=O)(OC[C@@H]1C=C[C@H](n2cc(C)c(=O)[nH]c2=O)O1)Oc1ccccc1 ; strain or isolate: IIIB ; read by: syncytia ; cell line: CEM ; read-out: EC50 ; value: 0.13 µM
Cc1ccc(-c2ccc3c(c2)C=C(C(=O)Nc2ccc(C[N+](C)(C)C4CCOCC4)cc2)CCC3)cc1 ; strain or isolate: BAL R5 ; read by: p24 / ELISA / antigen ; cell line: PBMC ; read-out: EC50 ; value: 0.1 µM
C#C[C@]1(CO)O[C@@H](n2cnc3c(N)nc(F)nc32)C[C@@H]1OC(=O)C(C)(C)CCC ; strain or isolate: NL4-3 ; read by: luminescence ; cell line: U373-CD4-CXCR4 ; read-out: EC50 ; conditions: pseudotyped ; value: 0.0464 µM
Cc1cn([C@H]2C[C@H](N=[N+]=[N-])[C@@H](CO)O2)c(=O)[nH]c1=O ; strain or isolate: CC11 Clinical isolates ; read by: p24 ; read-out: EC50 ; value: 0.001 µM
Cc1ccnc2c1NC(=O)c1cccnc1N2C1CC1 ; strain or isolate: SIKA ; read by: cytopathic effect / XTT ; cell line: PBMC ; read-out: EC50 ; conditions: clinical isolate ; value: 0.2 µM
Cc1cn([C@H]2C[C@H](N=[N+]=[N-])[C@@H](COP(=O)(O)OP(=O)(O)OP(=O)(O)O)O2)c(=O)[nH]c1=O ; strain or isolate: IIIB ; read by: cytopathic effect / trypan blue ; cell line: ATH8 ; read-out: EC50 ; value: 19 µM
O=C1N(Cc2ccc(CO)cc2)[C@H](Cc2ccccc2)[C@H](O)[C@@H](O)[C@@H](Cc2ccccc2)N1Cc1ccc(CO)cc1 ; strain or isolate: RF ; read by: hybridisation ; cell line: MT-2 ; read-out: EC90 ; value: 0.057 µM
C#C[C@]1(CO)O[C@@H](n2cnc3c(N)nc(F)nc32)C[C@@H]1OC(=O)c1ccccc1 ; strain or isolate: NL4-3 ; read by: luminescence ; cell line: U373-CD4-CXCR4 ; read-out: EC50 ; conditions: pseudotyped ; value: 0.0408 µM
CCC(CC1CCOCC1)c1cc(O)c(C(c2cccc(NS(=O)(=O)c3cn(C)cn3)c2)C2CC2)c(=O)o1 ; strain or isolate: IIIB ; read by: p24 ; cell line: MT-4 ; read-out: EC50 ; value: 4.2 µM
Cc1ccc(/C=C2\CN(C)CC3=C2OC(N)=C(C#N)C3c2ccc(C)cc2)cc1 ; strain or isolate: RF ; read by: cytopathic effect / XTT ; cell line: CEM + CEM-SS ; read-out: EC50 ; value: >11.1 µM
CCC(Cc1ccccc1)c1cc(O)c(C(c2cccc(NS(=O)(=O)c3ccc(C#N)cc3)c2)C2CC2)c(=O)o1 ; strain or isolate: IIIB ; read by: p24 ; cell line: MT-4 ; read-out: EC50 ; value: 1.6 µM
Cc1ccc(/C=C2\CN(C)CC3C2=NN(c2ccccc2)C3c2ccc(C)cc2)cc1 ; strain or isolate: RF ; read by: cytopathic effect / XTT ; cell line: CEM + CEM-SS ; read-out: EC50 ; value: >200 µM
CC(C)(C)NC(=O)[C@@H]1C[C@@H]2CCCC[C@@H]2CN1C[C@@H](O)[C@H](Cc1ccccc1)NC(=O)[C@H](CC(N)=O)NC(=O)c1ccc2ccccc2n1 ; changes: PR-L10I K20R M36I/V P63L/S L90M ; strain or isolate: BR60 (PR L10I K20R M36I/V P63L/S L90M) ; read by: p24 ; cell line: PBMC ; read-out: EC90 ; value: 0.016 µM
CC(C)=CCOc1cc(NC(=S)c2ccoc2C)ccc1Cl ; changes: gp120 T90I T188N T236A N289K T297I S334N T341I N386D ; strain or isolate: HHA-500SN (GP120-T90I T188N T236A N289K T297I S334N T341I N386D) ; read by: syncytia ; cell line: CEM ; read-out: EC50 ; value: 0.003 µg/mL
Nc1nc2c(ncn2[C@H]2CC[C@@H](CO)O2)c(=O)[nH]1 ; strain or isolate: MB48 ddI-resistant ; read by: cytopathic effect / XTT / RT activity ; cell line: MT-2 ; read-out: EC50 ; conditions: 5 d ; value: 6.5 µM
CN1CC2=C(OC(N)=C(C#N)C2c2cccs2)/C(=C/c2cccs2)C1 ; strain or isolate: RF ; read by: cytopathic effect / XTT ; cell line: CEM + CEM-SS ; read-out: EC50 ; value: >9 µM
Cc1cn([C@H]2C=C[C@@H](CO)O2)c(=O)[nH]c1=O ; strain or isolate: IIIB ; read by: syncytia ; cell line: CEM/dCK- + CEM ; read-out: EC50 ; value: 0.17 µM
O=c1[nH]cnc2c1ncn2[C@H]1CC[C@@H](CO)O1 ; strain or isolate: MB48 ddI-resistant ; read by: cytopathic effect / XTT / RT activity ; cell line: MT-2 ; read-out: EC50 ; conditions: 5 d ; value: 20 µM
CS(=O)(=O)O[C@H]1C[C@H](n2ccc(=O)[nH]c2=O)O[C@@H]1COP(=O)(OCC(Cl)(Cl)Cl)OCC(Cl)(Cl)Cl ; strain or isolate: RF ; read by: p24 / ELISA ; cell line: C8166 ; read-out: EC50 ; value: >100 µM
Cc1cn([C@H]2C=C[C@@H](CO)O2)c(=O)n(N)c1=O ; strain or isolate: BRU ; read by: cytopathic effect / MTT ; cell line: CEM-C113 + CEM/C113 ; read-out: EC50 ; value: >1 µM
CC(=O)O[C@H]1C[C@H](n2cc(C)c(=O)[nH]c2=O)O[C@@H]1CO ; strain or isolate: RF ; read by: p24 / ELISA ; cell line: C8166 ; read-out: EC50 ; value: >100 µM
Cc1cn([C@H]2C[C@H](N=[N+]=[N-])[C@@H](CO)O2)c(=O)[nH]c1=O ; strain or isolate: IIIB ; read by: cytopathic effect / MTT ; cell line: MT-4 ; read-out: EC50 ; value: 0.0053 µM
CC(=O)O[C@H]1C[C@H](n2ccc(=O)[nH]c2=O)O[C@@H]1COP(=O)(OCC(Cl)(Cl)Cl)OCC(Cl)(Cl)Cl ; strain or isolate: RF ; read by: p24 / ELISA ; cell line: C8166 ; read-out: EC50 ; value: >100 µM
C1CNCCNCCCN(CCCN2CCCNCCNCCCNCC2)CCNC1 ; strain or isolate: IIIB ; read by: cytopathic effect / MTT ; cell line: MT-4 ; read-out: EC50 ; value: 0.11 µg/mL
CCO[C@H]1C[C@H](n2cc(C)c(=O)[nH]c2=O)O[C@@H]1COP(=O)(OCC(Cl)(Cl)Cl)OCC(Cl)(Cl)Cl ; strain or isolate: RF ; read by: p24 / ELISA ; cell line: C8166 ; read-out: EC50 ; value: 28 µM
Cc1cn([C@H]2C[C@@H](N=[N+]=[N-])[C@@H](CO)O2)c(=O)[nH]c1=O ; strain or isolate: IIIB ; read by: cytopathic effect / trypan blue ; cell line: ATH8 ; read-out: EC50 ; value: >200 µM
Cc1cn([C@H]2C[C@H](N=[N+]=[N-])[C@@H](CO)O2)c(=O)[nH]c1=O ; strain or isolate: NL4-3 ; read by: luciferase / luminescence ; cell line: MT-4 ; read-out: EC50 ; value: 0.008 µg/mL
CC(C)Nc1cccnc1N1CCN(C(=O)c2cc3cc(NS(C)(=O)=O)ccc3[nH]2)CC1 ; strain or isolate: IIIB ; read by: syncytia ; cell line: CEM ; read-out: EC50 ; value: 0.007 µg/mL
Cc1cn([C@H]2C[C@H](n3nncc3C)[C@@H](CO)O2)c(=O)[nH]c1=O ; strain or isolate: LAV ; read by: RT activity ; cell line: PBMC ; read-out: EC50 ; value: >100 µM
Fc1cccc(F)c1[C@@H]1SCc2nc3ccccc3n21 ; changes: RT-V106N ; strain or isolate: IIIB ; read by: cytopathic effect / XTT ; cell line: CEM ; read-out: EC50 ; value: ≥34.7 µM
c1cc(CN2CCCNCCNCCCNCC2)ccc1CN1CCCNCCNCCCNCC1 ; strain or isolate: HE ; read by: cytopathic effect / MTT ; cell line: MT-4 ; read-out: EC50 ; value: 0.003 µg/mL
O=c1[nH]cnc2c1ncn2[C@H]1CC[C@@H](CO)O1 ; strain or isolate: IIIB ; read by: syncytia ; cell line: CEM ; read-out: EC50 ; value: 2.3 µM
O=c1oc(C(CC2CC2)CC2CC2)cc(O)c1C(c1cccc(NS(=O)(=O)c2ccccc2)c1)C1CC1 ; strain or isolate: IIIB ; read by: p24 ; cell line: MT-4 ; read-out: EC50 ; value: 4.1 µM
CC1=C(/C=C/C(C)=C/C=C/C(C)=C/C(=O)O)C(C)(C)CCC1 ; strain or isolate: HTLV-III ; read by: plaque count ; cell line: MT-4 ; read-out: EC50 ; value: <5 µg/mL
CCC(Cc1ccccc1)c1cc(O)c(C(c2cccc(NS(=O)(=O)c3ccc(Cl)cc3)c2)C2CC2)c(=O)o1 ; strain or isolate: IIIB ; read by: p24 ; cell line: MT-4 ; read-out: EC50 ; value: 2 µM
Nc1ccn([C@H]2CC[C@@H](CO)O2)c(=O)n1 ; strain or isolate: NL4-3 WT ; read by: cytopathic effect / XTT / RT activity ; cell line: MT-2 ; read-out: EC50 ; conditions: 5 d ; value: 3.2 µM
C=C1C[C@@]23CC[C@H]4[C@@](C)(CCC(=O)[C@]4(C)CO)[C@@H]2C[C@@H]1[C@@H](O)C3=O ; strain or isolate: NL4-3 ; read by: luciferase / luminescence ; cell line: MT-4 ; read-out: EC50 ; value: >44 µM
Cc1cc(Cl)nc(C)c1C(=O)NCC[C@@H](C)N1CCC(N(Cc2ccsc2)C(=O)NCCCCC(=O)O)CC1 ; read by: p24 / ELISA ; cell line: PBMC ; read-out: EC50 ; value: 0.125 µM
c1ccc(CNCc2ccc(CN(Cc3nc4ccccc4[nH]3)C3CCCc4cccnc43)cc2)nc1 ; strain or isolate: NL4-3 ; read by: p24 / ELISA / antigen ; cell line: MT-4 ; read-out: EC50 ; value: 0.051 µM
Cc1cn([C@H]2C[C@H](N=[N+]=[N-])[C@@H](COP(=O)(O)OP(=O)(O)CP(=O)(O)O)O2)c(=O)[nH]c1=O ; strain or isolate: IIIB ; read by: cytopathic effect / trypan blue ; cell line: ATH8 ; read-out: EC50 ; value: 7 µM
C=C(C)[C@H]1CC[C@]23CC(=C)[C@H](C[C@H]2[C@]1(C)CCC(=O)OC)[C@@H](O)C3=O ; strain or isolate: NL4-3 ; read by: luciferase / luminescence ; cell line: MT-4 ; read-out: EC50 ; value: >44 µM
CC(C)[C@H](NC(=O)c1ccc2ccccc2n1)C(=O)N[C@@H](Cc1ccccc1)[C@H](O)CN1CC[C@@H](OCc2ccncc2)C[C@H]1C(=O)NC(C)(C)C ; strain or isolate: Wg3523 ; read by: p24 / ELISA / antigen ; cell line: PBMC ; read-out: EC50 ; value: 0.024 µM
COCCOCCCc1cc(O)c(C(c2cccc(NS(=O)(=O)c3cn(C)cn3)c2)C2CC2)c(=O)o1 ; strain or isolate: IIIB ; read by: p24 ; cell line: MT-4 ; read-out: EC50 ; value: >>3 µM
CC(C)=CCN1Cc2cc(Cl)cc3[nH]c(=S)n(c23)C[C@@H]1C ; changes: RT-K103N ; strain or isolate: IIIB ; read by: cytopathic effect / XTT ; cell line: CEM ; read-out: EC50 ; value: ≥16 µM
C#C[C@]1(CO)O[C@@H](n2cnc3c(N)nc(F)nc32)C[C@@H]1OC(=O)CCCCCCCCCCCCCCCCCCC ; strain or isolate: NL4-3 ; read by: luminescence ; cell line: U373-CD4-CXCR4 ; read-out: EC50 ; conditions: pseudotyped ; value: 0.6353 µM
Cc1cn([C@@H]2O[C@H](CO[Si](C)(C)C(C)(C)C)C3(OS(=O)(=O)C=C3N)[C@H]2O[Si](C)(C)C(C)(C)C)c(=O)n(C)c1=O ; strain or isolate: IIIB ; read by: cytopathic effect / XTT ; cell line: CEM ; read-out: EC50 ; value: 0.03 µM
COc1ccc(/C=C2\CN(C)CC3C2=NN(c2ccccc2)C3c2ccc(OC)cc2)cc1 ; strain or isolate: RF ; read by: cytopathic effect / XTT ; cell line: CEM + CEM-SS ; read-out: EC50 ; value: >200 µM
Cn1cnc(S(=O)(=O)Nc2cccc(C(c3c(O)cc(CCc4ccccc4)oc3=O)C3CC3)c2)c1 ; strain or isolate: IIIB ; read by: p24 ; cell line: MT-4 ; read-out: EC50 ; value: >>3 µM
Cc1cn([C@@H]2O[C@H](CO[Si](C)(C)C(C)(C)C)C3(OS(=O)(=O)C=C3N)[C@H]2O[Si](C)(C)C(C)(C)C)c(=O)n(C)c1=O ; strain or isolate: IIIB ; read by: syncytia ; cell line: CEM ; read-out: EC50 ; value: 0.018 µg/mL
C#C[C@]1(CO)O[C@@H](n2cnc3c(N)nc(F)nc32)C[C@@H]1OC(=O)C(CCCCCC)CCCCCCCC ; strain or isolate: NL4-3 ; read by: luminescence ; cell line: U373-CD4-CXCR4 ; read-out: EC50 ; conditions: pseudotyped ; value: 0.5546 µM
Cc1nnn([C@H]2C[C@H](n3ccc(=O)[nH]c3=O)O[C@@H]2CO)c1C ; strain or isolate: LAV ; read by: RT activity ; cell line: PBMC ; read-out: EC50 ; value: >100 µM
C#C[C@]1(COC(=O)OCCCCCC)O[C@@H](n2cnc3c(N)nc(F)nc32)C[C@@H]1OC(=O)CCCCCCCCCCCCC ; strain or isolate: NL4-3 ; read by: luminescence ; cell line: U373-CD4-CXCR4 ; read-out: EC50 ; conditions: pseudotyped ; value: 1.093 µM
COc1ccc2c(O)c(C(c3cccc(NS(=O)(=O)c4cn(C)cn4)c3)C3CC3)c(=O)oc2c1 ; strain or isolate: IIIB ; read by: p24 ; cell line: MT-4 ; read-out: EC50 ; value: >>10 µM
C#C[C@]1(CO)O[C@@H](n2cnc3c(NC(=O)CCCCCCCCC)nc(F)nc32)C[C@@H]1OC(=O)CCCCCCCCC ; strain or isolate: NL4-3 ; read by: luminescence ; cell line: U373-CD4-CXCR4 ; read-out: EC50 ; conditions: pseudotyped ; value: 0.0068 µM
COC(=O)[C@H](C)NP(=O)(OC[C@@H]1O[C@H](n2ccc(N)nc2=O)CS1)Oc1ccccc1 ; strain or isolate: IIIB ; read by: syncytia ; cell line: CEM ; read-out: EC50 ; value: 2.5 µM
C#C[C@]1(CO)O[C@@H](n2cnc3c(N)nc(F)nc32)C[C@@H]1OC(=O)Cc1ccccc1 ; strain or isolate: NL4-3 ; read by: luminescence ; cell line: U373-CD4-CXCR4 ; read-out: EC50 ; conditions: pseudotyped ; value: 0.0072 µM
COc1ccc2c(O)c(C(c3cccc(NS(=O)(=O)c4cccc5cccnc45)c3)C3CC3)c(=O)oc2c1 ; strain or isolate: IIIB ; read by: p24 ; cell line: MT-4 ; read-out: EC50 ; value: >>10 µM
Nc1ccn([C@H]2CC[C@@H](CO)O2)c(=O)n1 ; strain or isolate: IIIB ; read by: syncytia ; cell line: CEM ; read-out: EC50 ; value: 0.04 µM